# Reference: patent US9717746B2 (priority 2014, dated 2017)
# System: hippocampal slices
smiles,measurement,value
CN1CCN(CC(=O)N2c3ccccc3C(=O)Nc3cccnc32)CC1 [pirenzepine],protection against DFP neurotoxicity (percentage area of PS recovered),prevents a neurotoxic effect
